Results taken from PMC8584447, “Adhesive Antimicrobial Peptides Containing 3,4-Dihydroxy-L-Phenylalanine Residues for Direct One-Step Surface Coating” (International Journal of Molecular Sciences, 2021).

Assay: Quantification of immobilized peptides on PS surface (bicinchoninic acid assay)
Type: physicochemical
Details: micro BCA assay; for mass of adsorbed peptide (coverage): 24-well PS plate, 200 μM peptide in 10 mM Tris-HCl pH 8.5, coated 10 min at 37 °C, triplicate mean

For “APKAMKLLKKLLKLQKKGIGGGGSGGGGSYYYYYYY [NKC-DOPA7, NKC with glycine–serine linker and 7 DOPA moieties at the C-terminus]”, the “mass of adsorbed peptide (coverage)” value was 12.8 μg/cm^2.

For “APKAMKLLKKLLKLQKKGI-NH2 (C-terminus assumed) [NKC, reference compound]”, the “amount of peptide adhered to the PD-coated surface” value (polydopamine (PD)-coated 24-well PS plate, 200 μM NKC, 24 h at 37 °C) was 13.6 μg/cm^2.

In the case of “APKAMKLLKKLLKLQKKGIGGGGSGGGGSY [NKC-DOPA1, NKC with glycine–serine linker and 1 DOPA moiety at the C-terminus]”, the “mass of adsorbed peptide (coverage)” value is reported as 2.7 μg/cm^2.

For “APKAMKLLKKLLKLQKKGIGGGGSGGGGSYYY [NKC-DOPA3, NKC with glycine–serine linker and 3 DOPA moieties at the C-terminus]”, the “mass of adsorbed peptide (coverage)” value was 4.9 μg/cm^2.

For “APKAMKLLKKLLKLQKKGIGGGGSGGGGSYYYYY [NKC-DOPA5, NKC with glycine–serine linker and 5 DOPA moieties at the C-terminus]”, the “mass of adsorbed peptide (coverage)” value was 7.2 μg/cm^2.

Ends that are not written are not given here.
